System: ZR75 cells
Assay: Cellular uptake assay with FITC-labeled peptide, confocal microscopy
Format: cell-based, Human
Settings: 10 uM FITC labeled peptide, FIG. 1C

## GRKKRRQRRRGGMVEFRWSCPGRRKAKA [PIP1]
  time at which peptide enters the cell membrane: 30 min
  time by which peptide enters the nucleus: ≤ 120 min

From US10682388B2, “Targeting of PELP1 in cancer therapy” (THE BOARD OF REGENTS OF THE UNIVERSITY OF TEXAS SYSTEM, priority 2014, dated 2020)
